Literature values as cited in patent publication US20020018777A1, “STERILIZATION OF VIRUS INFECTED PLASMA” (priority 1995, published 2002).

System: hepatitis B virus
Settings: treatment with TNBP

CCCCOP(=O)(OCCCC)OCCCC
hepatitis B virus inactivated: 10^6 infectious doses (ID50)
